# Data taken from PMC9017349, “Spiropyrimidinetriones: a Class of DNA Gyrase Inhibitors with Activity against Mycobacterium tuberculosis and without Cross-Resistance to Fluoroquinolones” (Antimicrobial Agents and Chemotherapy, 2022).
# Key:
# [1] = tested on: M. tuberculosis Erdman; assay: microbe, parasite or virus in culture; type: cell-based; details: Mycobacterium tuberculosis, 7H9 medium-ADC-glycerol, read-out: MIC against the Erdman strain
# [2] = tested on: M. tuberculosis H37Rv; type: cell-based; details: CARA
# [3] = tested on: M. tuberculosis Erdman pFCA-LuxAB (Erdman Lux); details: BALB/c mice, 300 mg/kg p.o. daily, 12 days
# [4] = tested on: M. tuberculosis ΔcydA; type: cell-based
smiles,measurement,setting,value
Cc1nnc(-c2noc3c(F)c4c(cc23)CC2(C(=O)NC(=O)NC2=O)[C@H]2[C@H](C)O[C@H](C)CN42)o1 [Compound 22],MIC,[1],4 µM
same,plasma Cmax over the serum-shifted MIC of M. tuberculosis Erdman,300 mg/kg,~20 fold
same,free AUC/MIC,based on the untreated mouse PK,43
same,MBC relative to MIC,[2],2 fold
same,decline in lung CFU burdens relative to the untreated controls,[3],0.61 log10
same,"MIC90, ΔcydA",[4],2.0 µM
